The structures appear in SMILES notation. The list shows a part of the results, in another mix than the full data. Active and inactive are the calls of the source. Cut-off read from the data, not from the text of the source: active = inhibition above about 50%; inactive = the rest.

By UniProt entry, the sequences of proteins in these tests, tags left out. Where a name states a change or a piece, a line headed by the entry shows the natural chain unless it says otherwise.
UniProt Q1HVG2: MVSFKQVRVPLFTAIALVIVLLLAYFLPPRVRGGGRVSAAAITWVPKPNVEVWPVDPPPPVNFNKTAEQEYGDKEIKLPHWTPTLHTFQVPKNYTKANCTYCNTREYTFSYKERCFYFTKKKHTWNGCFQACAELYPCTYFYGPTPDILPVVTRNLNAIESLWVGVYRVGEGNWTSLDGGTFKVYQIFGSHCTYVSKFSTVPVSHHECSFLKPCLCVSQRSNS

The target of this assay is Glycoprotein 42 (Epstein-Barr virus (strain AG876)) (UniProt Q1HVG2). Put plainly: Epstein-Barr virus gp42 inhibitors, primary screen, biochemical, uHTS, fluorescence polarization (AID 1085). The settings on record: Fluorescence polarization binding assay, mP read-out; active compounds read high; tested at 21.74 µM.
By inhibition is commonly meant the drop in the measured response relative to a control, in per cent. In the case of `O=c1c2cc([N+](=O)[O-])ccc2[nH]c2c([N+](=O)[O-])cc([N+](=O)[O-])cc12`, the inhibition is inactive: -2.38%. In the case of `CN(C)C(=O)Oc1noc2ccccc12`, the inhibition was inactive: -5.71%.

For the compound `CC(=O)NC(SC(=S)N(CC(C)C)CC(C)C)C(Cl)(Cl)Cl` (centres undefined), the inhibition was inactive: 1.35%. In the case of `Cc1ccc(OP(=O)(Nc2ccccn2)Oc2ccc(C)cc2)cc1` it was inactive: -16.6%. As to `CCC(=O)N1C2C3N(C(=O)CC)C1C1N(C(=O)CC)C(C(N1C(=O)CC)N3C(=O)CC)N2C(=O)CC`, the inhibition was inactive: -15.9%. In the case of `CC(C)(C)C(=O)NC(Sc1ccccc1)C(Cl)(Cl)Cl` (centres undefined), the inhibition is inactive: -9.38%. Regarding `O=P1(Nc2nc3ccc(Cl)cc3s2)COc2ccccc2O1` (centres undefined), the inhibition is inactive: -20%. Take `CCOc1ccc(C2=NCC(CBr)S2)cc1` (centres undefined): the inhibition is inactive: -9.69%. Regarding `CC(=O)Nc1ccc([As](=O)(O)O)c(O)c1`, the inhibition is inactive: -4.61%.

With `CC(=O)Nc1ccc(Oc2c([N+](=O)[O-])cc([N+](=O)[O-])cc2[N+](=O)[O-])cc1`, the inhibition is inactive: 5.01%.

Regarding `C[C@H]1OP(=O)(Oc2ccccc2)C[C@@H]2O[C@@H]21` (some centres undefined), the inhibition was inactive: -18.8%. In the case of `C[C@@H]1C=CCP(=O)(Oc2ccccc2)O1` (some centres undefined) it was inactive: -11.7%; in that of `c1nnnn1CCn1cnnn1`, inactive: -3.23%; in that of `CC(C)C(=O)NC(Sc1ccccc1)C(Cl)(Cl)Cl` (centres undefined), inactive: 6.82%.

On to `O=P(Nc1nccs1)(c1ccccc1)c1ccccc1`, for which the inhibition is inactive: -2.68%.

On to `O=P(Nc1nc2ccccc2s1)(c1ccccc1)c1ccccc1`, for which the inhibition was inactive: -12.5%. In the case of `C[C@H]1OP(=O)(Oc2ccccc2)[C@H](O)[C@H](O)[C@H]1N=[N+]=[N-]` (some centres undefined) it was inactive: -9.22%.

For the compound `O=P(Nc1ccccn1)(c1ccc(Br)cc1)c1ccc(Br)cc1`, the inhibition was inactive: 11.3%.

Regarding `C(Cc1nn[nH]n1)Cc1nn[nH]n1`, the inhibition is inactive: -13.5%. `Nc1ccc([As](=O)(O)c2ccc([N+](=O)[O-])cc2)cc1`: the inhibition is inactive: -12.8%. `O=C(OC1CN2CCC1CC2)c1cccc(Cl)c1` (centres undefined): the inhibition is inactive: -11.4%.

With `CC(=O)NC(SC(=S)N(C)C)C(Cl)(Cl)Cl` (centres undefined), the inhibition was inactive: -7.09%.

As to `O=[N+]([O-])c1ncn(CCn2cnc([N+](=O)[O-])n2)n1`, the inhibition is inactive: -1.28%.

As for `O=[As](O)(c1ccccc1)c1ccc(O)cc1`, the inhibition was inactive: 1.74%.

Values taken from PubChem BioAssay AID1085 (Emory University Molecular Libraries Screening Center, 2008).
